Measured values from several laboratories, pooled; numbers as filed in NIAID ChemDB.

Shared fields: growth or infection tests; species: Coxsackie virus; cells: HeLa; endpoint: EC50

Two numbers with a dash give a range or band. Neighbouring rows are from separate reports. An empty or dashed field is not shown. ECn: concentration that inhibits the pathogen or its effect by n%.

SMILES	strain	method	value
CCCc1ccc(CCCOc2ccc(-c3ccccc3)c(Br)c2)nn1	-	cytopathic effect	0.033–0.659 µg/mL
Nn1c(SCC(=O)O)nnc1-c1cn(-c2ccccc2)nc1-c1ccccc1	TYPE B4	cytopathic effect	>80 µg/mL
CC1(CO)CCC(Cn2cnc3c(=O)[nH]c(N)nc32)C1(C)C	TYPE B4	cytopathic effect	>400 µg/mL
Nc1ncnc2c1ncn2[C@@H]1C=C(CO)[C@@H](O)[C@H]1O	TYPE B4	cytopathic effect	≥40 µg/mL
CS(=O)(=O)c1ccc(NCCc2ccc(Cl)cc2)nc1	TYPE A21	cytopathic effect	>10 µg/mL
S=c1[nH]n2c(-c3cn(-c4ccccc4)nc3-c3ccccc3)nnc2s1	TYPE B4	cytopathic effect	>80 µg/mL
CS(=O)(=O)c1ccc(Cc2ccc(Cl)c(Cl)c2)nc1	TYPE B4	cytopathic effect	>10 µg/mL
COC(=O)[C@]1(C)CCC[C@]2(C)c3ccc4[nH]c(C(F)(F)F)nc4c3CCC12	TYPE B4	plaque count	>4 µg/mL
CC1(CO)CCC(Cn2cnc3c(N)nc(N)nc32)C1(C)C	TYPE B4	cytopathic effect	40 µg/mL
CC=NC(=N)c1nc(-c2cccc(C)c2)n(Cc2ccccc2)n1	TYPE B4	cytopathic effect	>10 µg/mL
Nc1ncnc2c1ncn2[C@@H]1C=C(CCl)[C@@H](O)[C@H]1O	TYPE B4	cytopathic effect	>40 µg/mL
C#C[C@@H](O)C1=C[C@@H](n2cnc3c(N)ncnc32)[C@H](O)[C@@H]1O	TYPE B4	cytopathic effect	>400 µg/mL
Cc1cccn2c(C3OCCO3)cnc12	TYPE B4	-	>1000 µM
CS(=O)(=O)c1ccc(NCc2ccc(Cl)c(Cl)c2)nc1	TYPE B3	cytopathic effect	>10 µg/mL
Cc1cc(OCCCc2ccc(=S)[nH]n2)cc(C)c1-c1noc(C(F)F)n1	-	cytopathic effect	0.033–0.659 µg/mL
COC(=O)[C@]1(C)CCC[C@]2(C)c3ccc4nc(-c5ccccc5)c(-c5ccccc5)nc4c3CCC12	TYPE B4	plaque count	>4 µg/mL
Cc1cc(OCCCc2ccc(C(F)(F)F)nn2)cc(C)c1-c1noc(C(F)F)n1	-	cytopathic effect	0.033–0.659 µg/mL
CCC(Sc1ncnc2c1cnn2COCCO)C(N)=O	TYPE B4	cytopathic effect	>400 µg/mL
CCOC(=O)C1Sc2nnc(-c3cn(-c4ccccc4)nc3-c3ccccc3)n2NC1=O	TYPE B4	cytopathic effect	>80 µg/mL
COC(=O)[C@]1(C)CCC[C@]2(C)c3ccc4[nH]cnc4c3CCC12	TYPE B4	plaque count	>4 µg/mL
CC1=Nn2c(nnc2-c2cn(-c3ccccc3)nc2-c2ccccc2)SC1	TYPE B4	cytopathic effect	>3.2 µg/mL
CS(=O)(=O)c1ccc(Cc2ccc(F)cc2)nc1	TYPE A21	cytopathic effect	2.5 µg/mL
CC1(C)[C@@H](CO)CC[C@@]1(C)Cn1cnc2c(N)ncnc21	TYPE B4	cytopathic effect	>400 µg/mL
Cc1cn(C(CF)CCCO)c(=O)[nH]c1=O	TYPE B4	cytopathic effect	>400 µg/mL
N#Cc1cc([N+](=O)[O-])ccc1Oc1ccc(Cl)c(Cl)c1	TYPE A21	cytopathic effect	0.2 µg/mL
COC(=O)Nc1nc2c3c(ccc2[nH]1)[C@@]1(C)CCC[C@@](C)(C(=O)OC)C1CC3	TYPE B4	plaque count	>4 µg/mL
CS(=O)(=O)c1ccc(Cc2ccccc2)nc1	TYPE A21	cytopathic effect	>10 µg/mL
C=C[C@@H](O)C1=C[C@@H](n2cnc3c(N)ncnc32)[C@H](O)[C@@H]1O	TYPE B4	cytopathic effect	>200 µg/mL
Nc1nc2c(ncn2CCCC(O)CF)c(=O)[nH]1	TYPE B4	cytopathic effect	>400 µg/mL
CS(=O)(=O)c1cccnc1Oc1ccc(C(=O)c2ccccc2)cc1	TYPE A21	cytopathic effect	>10 µg/mL
CCS(=O)(=O)c1ccc(Cc2ccc(Cl)c(Cl)c2)nc1C(N)=O	TYPE A21	cytopathic effect	5 µg/mL
Cc1ccn2c(C3SCCS3)cnc2c1	TYPE B4	-	>1000 µM
O=c1[nH]cnc2c1cnn2Cc1cn(CCCCO)nn1	B4	-	>400 µg/mL
c1ccc(-c2nn3c(-c4cn(-c5ccccc5)nc4-c4ccccc4)nnc3s2)cc1	TYPE B4	cytopathic effect	>3.2 µg/mL
Nc1ncnc2c1ncn2[C@@H]1O[C@H](C=NOCc2ccccc2)[C@@H](O)[C@H]1O	B4	cytopathic effect	>200 µg/mL
CCC(Sc1ncnc2c1cnn2COCC(O)CO)C(N)=O	TYPE B4	cytopathic effect	>400 µg/mL
CC=NC(=N)c1nc(-c2ccccc2)n(COCCO)n1	TYPE B4	cytopathic effect	>200 µg/mL
CCOC(=O)/C=C\C=C\[C@H]1O[C@@H](n2ccc(=O)[nH]c2=O)[C@H](O)[C@@H]1O	B4	-	≥200 µM
CSCC1=C[C@@H](n2cnc3c(N)ncnc32)[C@H](O)[C@@H]1O	TYPE B4	cytopathic effect	>200 µg/mL
CC=NC(=N)c1nc(-c2cccc(OC)c2)n(COCCO)n1	TYPE B4	cytopathic effect	>10 µg/mL
CS(=O)(=O)c1ccc(Oc2ccc(C(=O)c3ccccc3)cc2)nc1	B3	cytopathic effect	<0.6 µg/mL
CCOc1cc(O)c(C(=O)/C=C/c2ccc(OC)cc2)c(OC)c1	TYPE A21	cytopathic effect	>3 µg/mL
CC(C)CS[C@H]1C[C@@H](n2cnc3c(N)ncnc32)[C@H](O)[C@@H]1O	TYPE B4	cytopathic effect	>80 µg/mL
Cc1ccn2c(C(SCCc3ccccc3)SCCc3ccccc3)cnc2c1	TYPE B4	-	>1000 µM
CC=NC(=N)c1nc(-c2cccc(C)c2)n(C/C=C/c2ccccc2)n1	TYPE B4	cytopathic effect	>10 µg/mL
Nc1ncnc2c1ncn2[C@@H]1O[C@H](C=NO)[C@@H](O)[C@H]1O	B4	cytopathic effect	>40 µg/mL
CSc1ncnc2c1cnn2Cc1cnnn1CCCCO	B4	-	>400 µg/mL
O=c1[nH]n2c(-c3cn(-c4ccccc4)nc3-c3ccccc3)nnc2sc1=O	TYPE B4	cytopathic effect	48 µg/mL
CNc1ncnc2c1cnn2Cc1cn(CCCCO)nn1	B4	-	>400 µg/mL
Cc1cccn2c(C3SCCS3)cnc12	TYPE B4	-	>1000 µM
Cc1cc(OCCCc2ccc(C(F)F)nn2)cc(C)c1-c1noc(C(F)F)n1	-	cytopathic effect	0.033–0.659 µg/mL
CC1(C)[C@@H](CO)CC[C@@]1(C)Cn1cc(Br)c(=O)[nH]c1=O	TYPE B4	cytopathic effect	>400 µg/mL
CC(Sc1ncnc2c1cnn2CCCCO)C(N)=O	TYPE B4	cytopathic effect	>400 µg/mL
Cc1cc(-c2noc(C(F)F)n2)cc(C)c1OCCCc1cccnn1	-	cytopathic effect	0.033–0.659 µg/mL
CC1(C)[C@@H](CO)CC[C@@]1(C)Cn1ccc(=O)[nH]c1=O	TYPE B4	cytopathic effect	>400 µg/mL
NC1=CC(c2ccccc2)=Nn2c(nnc2-c2cn(-c3ccccc3)nc2-c2ccccc2)S1	TYPE B4	cytopathic effect	>16 µg/mL
CC(C)S(=O)(=O)c1ccc(Cc2ccc(Cl)c(Cl)c2)nc1	TYPE A21	cytopathic effect	0.6 µg/mL
CC1(CO)CCC(Cn2nnc3c(=O)[nH]c(N)nc32)C1(C)C	TYPE B4	cytopathic effect	>400 µg/mL
Nc1ncnc2c1ncn2[C@@H]1C=C(CO)[C@@H](O)[C@H]1O	TYPE B4	cytopathic effect	>40 µg/mL
CSc1ccc(Cc2ccc(S(C)(=O)=O)cn2)cc1	TYPE A21	cytopathic effect	>10 µg/mL

A second listing of 5 rows from above:

SMILES,strain,method,value
N#Cc1cc([N+](=O)[O-])ccc1Oc1ccc(Cl)c(Cl)c1,TYPE A21,cytopathic effect,0.2 µg/mL
Nc1ncnc2c1ncn2[C@@H]1C=C(CO)[C@@H](O)[C@H]1O,TYPE B4,cytopathic effect,≥40 µg/mL
CSc1ncnc2c1cnn2Cc1cnnn1CCCCO,B4,-,>400 µg/mL
CC1(C)[C@@H](CO)CC[C@@]1(C)Cn1cnc2c(N)ncnc21,TYPE B4,cytopathic effect,>400 µg/mL
CCS(=O)(=O)c1ccc(Cc2ccc(Cl)c(Cl)c2)nc1C(N)=O,TYPE A21,cytopathic effect,5 µg/mL